# Potato spindle tuber viroid, stem 3: variant abundance in plants

Data from the supplement of Wu et al. 2024, doi:10.1371/journal.ppat.1012142.

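Three N. benthamiana plants were inoculated with the whole mutant pool. Samples came from the inoculated region at 5 days, the leaf margin at 10 and upper systemic leaves at 12.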

Region: stem 3 of PSTVd (intermediate strain), upper and lower strand joined, each 5' to 3', the first 8 letters being the upper strand. Wild type: GUGGUUCCGGAACCGC. Varied positions (N): GUGGUUCCGNANNCNN.

Values are reads per thousand in the sample; higher means more abundant, 0 means not found. Each value is the mean of three plants. "Pool" is the share in the plasmid pool used as inoculum, on the same scale. The inoculated region was read from the minus strand, the other sites from the plus strand. IR is the inoculated region, LM the leaf margin, Sys the systemic leaves. Sequences that differ at fixed positions probably stem from PCR or sequencing errors, and defective variants can be carried along by functional ones. Wild type was 17.3 per thousand in the pool and the most common sequence in every sample (inoculated region 330, 345, 235; leaf margin 794, 766, 816; systemic leaves 830, 792, 869). With 27,691-54,225 reads a sample, very low values are single reads.

GUGGUUCCGCAGCCGA (pool 0.862) read IR 0.381; LM 0.0441; Sys 0. For GUGGUUCCGCAAGCUG (pool 1.34) the result was IR 0.536; LM 0.0241; Sys 0. GUGGUUCCGCAACCAA (pool 0.846) read IR 0.301; LM 0; Sys 0. GUGGUUCCGAAUACAA (pool 0.939) read IR 0.747; LM 0.0226; Sys 0. For GUGGUUCCGUACCCUA (pool 0.769) the result was IR 0.276; LM 0.00944; Sys 0. With GUGGUUCCGCAGACGU (pool 0.862) the assay gave IR 1.25; LM 0.00944; Sys 0. GUGGUUCCGCAGGCCU (pool 0.693) gave IR 0.773; LM 0.154; Sys 0. For GUGGUUCCGCAGGCUG (pool 0.862) the result was IR 0.297; LM 0.0120; Sys 0.

With GUGGUUCCGAAGUCAC (pool 0.831) the assay gave IR 0.848; LM 1.15; Sys 1.19. GUGGGUCCGUAUCCUG (pool 0.0154) read IR 0; LM 0; Sys 0. GGGGGUCCGCAGACGU (pool 0.0154) gave IR 0; LM 0; Sys 0. GUGGGUCCGGAUCCGA (pool 0.0154) read IR 0; LM 0; Sys 0. GUGGUUCCGCACACCG (pool 0.631) gave IR 0.245; LM 0.0120; Sys 0. GUGGUUGCGUACGCCG (pool 0.0154) gave IR 0; LM 0; Sys 0. For GUGGUUCCGGAACCAC (pool 1.42) the result was IR 15.5; LM 8.62; Sys 7.37. GUGGUUCCGAACACAC (pool 0.693) read IR 0.860; LM 0.156; Sys 0.

For GUGGUUCCGUACACAU (pool 1.26) the result was IR 0.743; LM 0.00944; Sys 0. For GUGGUUCCGGACGCAU (pool 0.585) the result was IR 0.777; LM 0.181; Sys 0. GUGGUUCCGCACUCGG (pool 0.893) read IR 0.281; LM 0; Sys 0. With GUAGUUCCGGAGACUC (pool 0.0154) the assay gave IR 0; LM 0; Sys 0. GUGGUUCCGGAAGCCG (pool 0.754) read IR 0.262; LM 0.0106; Sys 0. GUGGUUCCGGAUUCCG (pool 0.985) read IR 0.354; LM 0.0120; Sys 0. GUGGUUCCGAAUUCGC (pool 0.739) read IR 0.827; LM 0.120; Sys 0. With GUGGUUCCGUACCCAG (pool 0.985) the assay gave IR 0.378; LM 0.0106; Sys 0.

GUGGUUCCGAAUCCUU (pool 0.846) gave IR 0.761; LM 0; Sys 0.0246. With GUGGUUCCGUACACAC (pool 0.862) the assay gave IR 0.344; LM 0; Sys 0. For GUGGUUCCGCAGUCAU (pool 0.985) the result was IR 0.763; LM 1.04; Sys 1.21. GUGGUUCCGGACCCUC (pool 0.739) gave IR 0.256; LM 0.0106; Sys 0.0205. With GUGGUUCCGAAAUCUG (pool 0.908) the assay gave IR 0.760; LM 0.00944; Sys 0. GUGGUUCCGCAAGCCG (pool 0.723) read IR 0.304; LM 0; Sys 0. GUGGGUCCGGAUACUG (pool 0.0154) read IR 0; LM 0; Sys 0. GUGGGUCCGCAUCCCG (pool 0.0154) gave IR 0; LM 0; Sys 0.

GUGGUUCCGAACCCAU (pool 0.939) gave IR 0.743; LM 0.0120; Sys 0. For GUGGUUCCGAAAUCUC (pool 1.18) the result was IR 0.854; LM 0; Sys 0.0497. For GUGGUUCCGAAGCCAA (pool 1.12) the result was IR 0.803; LM 1.25; Sys 1.19. With GUGGUUCCGCACCCUU (pool 0.877) the assay gave IR 0.183; LM 0.0106; Sys 0.

Excerpt, the final 3 entries:

{"sequence": "GUGGUUCCGAAAUCUC", "pool": "1.18", "IR": 0.854, "LM": 0, "Sys": 0.0497}
{"sequence": "GUGGUUCCGAAGCCAA", "pool": "1.12", "IR": 0.803, "LM": 1.25, "Sys": 1.19}
{"sequence": "GUGGUUCCGCACCCUU", "pool": "0.877", "IR": 0.183, "LM": 0.0106, "Sys": 0}